Test results as given in paper PMC3133661 (Biochemistry, 2011).

Biological target: the molecule itself
Experiment: crystal structure

B1: selenomethionine-labeled full-length PhoP of Mycobacterium tuberculosis (natural protein)
chain: not shown
modifications: selenomethionine in place of methionine (100% incorporation of selenium atoms by mass spectroscopy)
binding result: binds
